A mixed list of measured activities; the numbers were collected in NIAID ChemDB.

All rows: cytotoxicity tests; cells: Vero cells; read-out: CC50

Blank or dashed fields: not listed here. Lines come from different laboratories, so protocols vary. CCn is the concentration with n% toxicity to the cells.

SMILES,method,value
O=C(CNc1ccccc1)Sc1nnc(-c2ccncc2)o1,MTT,>62.5 µg/mL
CC(=O)Nn1cnc2c(Nc3ccc(C#N)cc3)ncnc2c1=N,,42.1 µg/mL
Cc1ccc(C)n1-c1ccc(C(=O)NN2C(=O)c3c(F)c(F)c(F)c(F)c3C2=O)cc1,MTT,260 µM
O=C(CNc1ccccn1)Sc1nnc(-c2ccncc2)o1,MTT,>62.5 µg/mL
O=[N+]([O-])c1ccc(-c2csc(-n3cccc3)n2)cc1,MTT,243 µM
COc1ccc(N(CC(=O)NC(C)(C)C)C(=O)[C@H]2CC[C@@]3(C)C4CC=C5C[C@@H](O)CC[C@]5(C)C4CC[C@]23C)cc1,crystal violet,154.4 µM
O=C(NN1C(=O)c2ccccc2C1=O)c1ccc(-n2cccc2)cc1,MTT,251 µM
O=C(CNc1ccccc1O)Sc1nnc(-c2ccncc2)o1,MTT,>62.5 µg/mL
CC(=O)Nn1cnc2c(Nc3ccc(F)cc3)ncnc2c1=N,,18.7 µg/mL
Cc1ccc(C)n1-c1nc(-c2ccc([N+](=O)[O-])cc2)cs1,MTT,253 µM
CC(C)(C)NC(=O)CN(C(=O)[C@H]1CC[C@@]2(C)C3CC=C4C[C@@H](O)CC[C@]4(C)C3CC[C@]12C)c1ccccc1Cl,crystal violet,136.8 µM
N#Cc1ccc(Nc2ncnc3c(=N)n(NC(=O)c4ccccc4)cnc23)cc1,,2.47 µg/mL
c1ccc(-c2csc(-n3cccc3)n2)cc1,MTT,233 µM
COc1ccc(Nc2ncnc3c(=N)n(NC(C)=O)cnc23)cc1,,46.52 µg/mL
O=C(CNc1ccc(Cl)cc1)Sc1nnc(-c2ccncc2)o1,MTT,>62.5 µg/mL

For reference, 2 entries again:

SMILES	method	value
CC(C)(C)NC(=O)CN(C(=O)[C@H]1CC[C@@]2(C)C3CC=C4C[C@@H](O)CC[C@]4(C)C3CC[C@]12C)c1ccccc1Cl	crystal violet	136.8 µM
COc1ccc(Nc2ncnc3c(=N)n(NC(C)=O)cnc23)cc1		46.52 µg/mL